A mixed list of measured activities; the numbers were collected in NIAID ChemDB.

All rows: tests in culture; species: Candida albicans; read-out: MIC90

Two numbers with a dash give a range or band. Conditions beyond the fields shown may differ between rows. An empty or dashed field is not shown. A number after MIC or MFC names an inhibition level or a share of isolates.

SMILES | strain | result
OC(Cn1cncn1)(Cn1cncn1)c1ccc(F)cc1F | ATCC 10231 | >128 µg/mL
COc1cc(/C=C/C=O)ccc1O | Clinical isolates | 100–250 µg/mL
CN(C/C=C/C#CC(C)(C)C)Cc1cccc2ccccc12 | CI-2 | 4 µg/mL
C=CCc1ccc(OC)cc1 | - | 0.016–0.025 µg/mL
CCCCCOc1ccc(-c2cc(-c3ccc(C(=O)N[C@H]4C[C@@H](O)[C@@H](O)NC(=O)[C@@H]5[C@@H](O)[C@@H](C)CN5C(=O)[C@H]([C@H](O)CC(N)=O)NC(=O)[C@H]([C@H](O)[C@@H](O)c5ccc(O)c(OS(=O)(=O)O)c5)NC(=O)[C@@H]5C[C@@H](O)CN5C(=O)[C@H]([C@@H](C)O)NC4=O)cc3)no2)cc1 | - | 0.015 µg/mL
C[C@H]1[C@H](O)[C@@H](C)/C=C/C=C/C=C/C=C/C=C/C=C/C=C/[C@H](O[C@@H]2O[C@H](C)[C@@H](O)[C@H](N)[C@@H]2O)C[C@@H]2O[C@](O)(C[C@@H](O)C[C@@H](O)CC[C@H](O)[C@@H](O)C[C@@H](O)CC(=O)O[C@H]1C)C[C@H](O)[C@H]2C(=O)O | ATCC 10231 | 0.25 µg/mL
CCC(C)CC(C)CCCCCCCCC(=O)N[C@H]1C[C@@H](O)[C@H](NCCN)NC(=O)[C@@H]2[C@@H](O)CCN2C(=O)[C@H]([C@H](O)CCN)NC(=O)[C@H]([C@H](O)[C@@H](O)c2ccc(O)cc2)NC(=O)[C@@H]2C[C@@H](O)CN2C(=O)[C@H]([C@@H](C)O)NC1=O | - | 0.03–1 µg/mL
Clc1ccc(C(Cn2ccnc2)OCc2c(Cl)cccc2Cl)c(Cl)c1 | 106 isolates | 4 µg/mL
C[C@@H](c1ncncc1F)[C@](O)(Cn1cncn1)c1ccc(F)cc1F | 206 isolates | 0.06 µg/mL
Nc1[nH]c(=O)ncc1F | - | 0.06–1 µg/mL
Clc1ccc(C(Cn2ccnc2)OCc2ccc(Sc3ccccc3)cc2)c(Cl)c1 | 106 isolates | 8 µg/mL
C[C@@H](c1ncncc1F)[C@](O)(Cn1cncn1)c1ccc(F)cc1F | - | 0.03–0.06 µg/mL
C[C@H]1[C@H](O)[C@@H](C)/C=C/C=C/C=C/C=C/C=C/C=C/C=C/[C@H](O[C@@H]2O[C@H](C)[C@@H](O)[C@H](N)[C@@H]2O)C[C@@H]2O[C@](O)(C[C@@H](O)C[C@@H](O)CC[C@H](O)[C@@H](O)C[C@@H](O)CC(=O)O[C@H]1C)C[C@H](O)[C@H]2C(=O)O | 4054 strains (fluconazole-susceptible) | 1 µg/mL
Clc1ccc(CCC(Cn2ccnc2)Sc2c(Cl)cccc2Cl)cc1 | 106 isolates | 8 µg/mL
Cc1nn([C@H](C)[C@](O)(Cn2cncn2)c2ccc(F)cc2F)c2ccc(F)cc12 | ATCC 32033 | ≤0.031 µg/mL
CCC(C)n1ncn(-c2ccc(N3CCN(c4ccc(OC[C@H]5CO[C@](Cn6cncn6)(c6ccc(Cl)cc6Cl)O5)cc4)CC3)cc2)c1=O | 206 isolates | 0.25 µg/mL

Repeating the final 2 entries:

SMILES	strain	result
Cc1nn([C@H](C)[C@](O)(Cn2cncn2)c2ccc(F)cc2F)c2ccc(F)cc12	ATCC 32033	≤0.031 µg/mL
CCC(C)n1ncn(-c2ccc(N3CCN(c4ccc(OC[C@H]5CO[C@](Cn6cncn6)(c6ccc(Cl)cc6Cl)O5)cc4)CC3)cc2)c1=O	206 isolates	0.25 µg/mL